For part of these data: The index is printed as in the source, without its formula.
Assays:
[1] = test system: WNV replicon expressing Vero cells; assay: Replicon inhibition assay (Renilla luciferase), WNV replicon expressing Vero cells; assay type: cell-based, West Nile virus (WNV); conditions: therapeutic index from CC50 and EC50
Description: (§1) Baby Hamster Kidney (BHK) and African green monkey kidney epithelial cells (Vero) were cultured in Dulbecco's Modified Eagle Medium (DMEM) (Cellgro®; Mediatech, Inc., Manassas, Va.) supplemented with 10% fetal bovine serum, MEM nonessential amino acid (Cellgro®) (5 ml/liter), and Penicillin-Streptomycin (2.5 ml/liter). Dengue 2 replicon expressing BHK cells and WNV replicon expressing Vero cells were cultured in DMEM as described above containing additionally Geneticin or G418 (Fisher Scientific®, Pittsburgh, Pa.) to maintain the selective pressure of the replicon expressing cells.
Dengue 2 replicon expressing BHK cells and WNV replicon expressing Vero cells were plated 100 μl into a black 96 well plate (Greiner Bio-One; Monroe, N.C.) with 10^5 cells/ml concentrations. […] A Renilla luciferase assay was performed with the addition of 50 μl substrate (Promega Corporation; Madison, Wis.) with a 2 second delay and a 10 second measurement in a Centro LB 960 plate luminescence plate reader (Berthold Technologies; Oak Ridge, Tenn.). The data was analyzed and plotted with GraphPad Prism 5 (GraphPad Software, Inc.; La Jolla, Calif.).
Specifically, the cells were prepared as above and the concentration of the compounds were varied (see Table 2). Renilla luciferase activity was measured as described above 24 hours after the addition of the compounds.

[2] = test system: Dengue 2 replicon expressing BHK cells; assay: Replicon inhibition assay (Renilla luciferase), Dengue 2 replicon expressing BHK cells; assay type: cell-based, Dengue virus (DENV2); conditions: DENV-BKH cells; from CC50 and EC50; ratio CC50 / EC50
Description: as §1
Dengue 2 replicon expressing BHK cells and WNV replicon expressing Vero cells were plated 100 μl into a black 96 well plate (Greiner Bio-One; Monroe, N.C.) with 10^5 cells/ml concentrations. After 6 hours of incubation, 1 μl of each compound diluted in DMSO to 2.5 mM was added into each well to obtain a 25 μM as the final concentration. Cells were incubated at 37° C. in a humidified CO2 (5%) chamber for 24 hours. The media was then removed and the cells are washed with PBS before adding 20 μl of lysis buffer to each well. A Renilla luciferase assay was performed with the addition of 50 μl substrate (Promega Corporation; Madison, Wis.) with a 2 second delay and a 10 second measurement in a Centro LB 960 plate luminescence plate reader (Berthold Technologies; Oak Ridge, Tenn.). The data was analyzed and plotted with GraphPad Prism 5 (GraphPad Software, Inc.; La Jolla, Calif.).
Renilla luciferase activity was measured as described above 24 hours after the addition of the compounds.

SMILES | TI [1] | TI (Therapeutic Index) [2]
CCN(CC)Cc1cc(Cl)c2cccnc2c1O [Compound 35] | 18.04 | 29.8551
Oc1c(CN2CCOCC2)cc(Cl)c2cccnc12 [Compound 34] | 24.82 | 4.8557
Oc1c(CN2CCOCC2)cc(Cl)c2c1NCCC2 [Compound 36] |  | 3.487
Oc1c(CN2CCOCC2)ccc2cccnc12 [Compound 33] |  | 42863.4

— patent publication US8563580B2, “Flavivirus inhibitors and methods for their use” (Georgetown University, priority 2008, dated 2013)
